Data as given in PubChem BioAssay AID1259414 (Drosophila RNAi Screening Center, 2018).
The deposit covers about 24,000 reagents; this is a random part of those that have a named target and a result. Over the whole deposit, about 1,210 (5%) got an active call. 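Inactive calls also include excluded dsRNAs with several or no targets, genes unexpressed in JW18, and well A1, regardless of score.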 A number with no mark means an inactive call.

Purpose: 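Host factors increasing or decreasing Wolbachia levels in cultured fly cells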 (primary screen)
Cell system: Drosophila JW18 cells infected with Wolbachia
Reagents: long dsRNA against Drosophila genes, 0.25 µg dsRNA per well of a 384-well plate
Duration: 5 days
Treatment: cells persistently infected with Wolbachia before knock-down; no added drug
Read-out: 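Imaged fluorescence in situ signal for Wolbachia 23S rRNA per DAPI-counted host cell, given as a robust z-score within each plate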
Scale: Wolbachia per cell robust z: higher = more Wolbachia per host cell than the plate typical
Call rule: 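Active if absolute robust z reaches 1.5 in two or more of three replicates, leaving out multi- or no-target dsRNAs, genes unexpressed in JW18 and A1 wells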

{"gene": "Rab40", "amplicon": "DRSC19820", "Wolbachia per cell robust z, rep 1": 0.567, "Wolbachia per cell robust z, rep 2": -2.47, "Wolbachia per cell robust z, rep 3": 0.88}
{"gene": "Roe1", "amplicon": "DRSC07534", "Wolbachia per cell robust z, rep 1": "-0.133 (active)", "Wolbachia per cell robust z, rep 2": -2.63, "Wolbachia per cell robust z, rep 3": -6.3}
{"gene": "Roe1", "amplicon": "DRSC26435", "Wolbachia per cell robust z, rep 1": -9.49, "Wolbachia per cell robust z, rep 2": 1.21, "Wolbachia per cell robust z, rep 3": 1.21}
{"gene": "Roe1", "amplicon": "DRSC38972", "Wolbachia per cell robust z, rep 1": -0.0533, "Wolbachia per cell robust z, rep 2": 0.853, "Wolbachia per cell robust z, rep 3": 0.546}
{"gene": "Bka (Bekka)", "amplicon": "DRSC02757", "Wolbachia per cell robust z, rep 1": 0.535, "Wolbachia per cell robust z, rep 2": 1.48, "Wolbachia per cell robust z, rep 3": 0.229}
{"gene": "CG10185", "amplicon": "DRSC14205", "Wolbachia per cell robust z, rep 1": -0.472, "Wolbachia per cell robust z, rep 2": -0.523, "Wolbachia per cell robust z, rep 3": -0.168}
{"gene": "ppk11 (pickpocket 11)", "amplicon": "DRSC02737", "Wolbachia per cell robust z, rep 1": -3.77, "Wolbachia per cell robust z, rep 2": 0.363, "Wolbachia per cell robust z, rep 3": -4.88}
{"gene": "Gart (GART trifunctional enzyme)", "amplicon": "DRSC03481", "Wolbachia per cell robust z, rep 1": -0.342, "Wolbachia per cell robust z, rep 2": 0.695, "Wolbachia per cell robust z, rep 3": -0.677}
{"gene": "Gart (GART trifunctional enzyme)", "amplicon": "DRSC25995", "Wolbachia per cell robust z, rep 1": 0.34, "Wolbachia per cell robust z, rep 2": 0.28, "Wolbachia per cell robust z, rep 3": -1.5}
{"gene": "CG32563", "amplicon": "DRSC19934", "Wolbachia per cell robust z, rep 1": -2.49, "Wolbachia per cell robust z, rep 2": 0.209, "Wolbachia per cell robust z, rep 3": -1.74}
{"gene": "CG32563", "amplicon": "DRSC29716", "Wolbachia per cell robust z, rep 1": -0.178, "Wolbachia per cell robust z, rep 2": 0.587, "Wolbachia per cell robust z, rep 3": -0.262}
{"gene": "CG5509", "amplicon": "DRSC15822", "Wolbachia per cell robust z, rep 1": 1.11, "Wolbachia per cell robust z, rep 2": -0.966, "Wolbachia per cell robust z, rep 3": 0.0889}
{"gene": "Obp50e (Odorant-binding protein 50e)", "amplicon": "DRSC06434", "Wolbachia per cell robust z, rep 1": 0.101, "Wolbachia per cell robust z, rep 2": -4.46, "Wolbachia per cell robust z, rep 3": -0.841}
{"gene": "CG31804", "amplicon": "DRSC22728", "Wolbachia per cell robust z, rep 1": 1.13, "Wolbachia per cell robust z, rep 2": -1.35, "Wolbachia per cell robust z, rep 3": 0.888}
{"gene": "CG32373", "amplicon": "DRSC08895", "Wolbachia per cell robust z, rep 1": -3.61, "Wolbachia per cell robust z, rep 2": -0.193, "Wolbachia per cell robust z, rep 3": 0.438}
{"gene": "Pdf (Pigment-dispersing factor)", "amplicon": "DRSC16786", "Wolbachia per cell robust z, rep 1": 0.288, "Wolbachia per cell robust z, rep 2": 0.339, "Wolbachia per cell robust z, rep 3": 0.957}
{"gene": "galla-1", "amplicon": "DRSC05987", "Wolbachia per cell robust z, rep 1": -0.105, "Wolbachia per cell robust z, rep 2": -2.53, "Wolbachia per cell robust z, rep 3": -0.923}
{"gene": "CG8100", "amplicon": "DRSC10961", "Wolbachia per cell robust z, rep 1": 0.578, "Wolbachia per cell robust z, rep 2": -7.61, "Wolbachia per cell robust z, rep 3": -0.753}
{"gene": "Gfat2 (Glutamine:fructose-6-phosphate aminotransferase 2)", "amplicon": "DRSC14598", "Wolbachia per cell robust z, rep 1": -0.654, "Wolbachia per cell robust z, rep 2": -1.4, "Wolbachia per cell robust z, rep 3": -8.49}
{"gene": "Gfat2 (Glutamine:fructose-6-phosphate aminotransferase 2)", "amplicon": "DRSC26948", "Wolbachia per cell robust z, rep 1": 0.0732, "Wolbachia per cell robust z, rep 2": -0.118, "Wolbachia per cell robust z, rep 3": -1.82}
{"gene": "CG31495", "amplicon": "DRSC16762", "Wolbachia per cell robust z, rep 1": 0.763, "Wolbachia per cell robust z, rep 2": -0.0024, "Wolbachia per cell robust z, rep 3": -1.28}
{"gene": "CG31495", "amplicon": "DRSC29177", "Wolbachia per cell robust z, rep 1": "-2.4 (active)", "Wolbachia per cell robust z, rep 2": -1.21, "Wolbachia per cell robust z, rep 3": -1.61}
{"gene": "Vap33 (VAMP-associated protein 33kDa)", "amplicon": "DRSC18384", "Wolbachia per cell robust z, rep 1": 0.0523, "Wolbachia per cell robust z, rep 2": 1, "Wolbachia per cell robust z, rep 3": 0.112}
{"gene": "CG12607", "amplicon": "DRSC08287", "Wolbachia per cell robust z, rep 1": 0.553, "Wolbachia per cell robust z, rep 2": 0.431, "Wolbachia per cell robust z, rep 3": -0.528}

Sorted by “Wolbachia per cell robust z, rep 3” (low to high): some entries from above
{"gene": "Gfat2 (Glutamine:fructose-6-phosphate aminotransferase 2)", "amplicon": "DRSC14598", "Wolbachia per cell robust z, rep 1": -0.654, "Wolbachia per cell robust z, rep 2": -1.4, "Wolbachia per cell robust z, rep 3": -8.49}
{"gene": "CG8100", "amplicon": "DRSC10961", "Wolbachia per cell robust z, rep 1": 0.578, "Wolbachia per cell robust z, rep 2": -7.61, "Wolbachia per cell robust z, rep 3": -0.753}
